Compound potency records, mixed from different reports. Data source: NIAID ChemDB in PubChem.

Common to all: toxicity to cultured cells; endpoint: CC50

CCn is the concentration with n% toxicity to the cells. Neighbouring rows are from separate reports. An empty or dashed field is not shown.

compound	cell line	method	result
O=c1[nH]c(=O)n([C@@H]2O[C@H](CO)[C@@H](O)[C@@H]2O)cc1/C=C/Br	HELF	-	>800 µg/mL
CCCNCc1cccc(OCCCCCC(=O)OCC)c1	HEK 293	-	>20 µM
CC(C)(C)OC(=O)NCCN1CCC(NC(=O)C(=O)Nc2ccc(Cl)cc2)CC12CCCCC2	PM1	WST	61 µM
O=C1C[C@H](Cc2nc3ccccc3s2)N1C(=O)NCc1ccc(C(F)(F)F)cc1	COS-7	MTT	>25 µM
CCOC(=O)CCCCCOc1cccc(CN(C(=O)c2ccc(-c3cccc(N(C)C)c3)cc2)C(C)C)c1	HEK 293	-	>20 µM
CC(C)OSSOC(C)C	EBM-2	MTT	>20 µg/mL
O=C(Nc1ccc(Cl)cc1)C(=O)NC1CCNC2(CCCCC2)C1	PM1	WST	213 µM
CCCN(Cc1cccc(OCCCCCC(=O)OCC)c1)C(=O)c1ccc(-c2ccc3c(c2)OCO3)cc1	BJ	-	>20 µM
CN(Cc1nc2ccccc2[nH]1)Cc1ncccc1CCC(=O)N(C)C	C8166	MTT	>10 µM
COC(=O)[C@H](C)NP(=O)(OC[C@H]1C/C1=C/n1cnc2c(=O)[nH]c(N)nc21)Oc1ccccc1	MEF	neutral red	>206 µM
O=C1C[C@H](Cc2ccco2)N1C(=O)NCc1ccc(C(F)(F)F)cc1	COS-7	MTT	>100 µM
CCOC(=O)CCCCCOc1cccc(CN(C(=O)c2ccc(-c3cc(C(F)(F)F)cc(C(F)(F)F)c3)cc2)C(C)C)c1	HEK 293	-	>20 µM
CCN(CC)CCNc1cc(C)nc2c1ccc1c2ccc2c(NCCN(CC)CC)cc(C)nc21	Macrophage line RAW 264.7	MTT	0.00601 µM
Nc1ccn([C@H]2CC[C@@H](CO)O2)c(=O)n1	MM	-	>10 µM
CC(C)N(Cc1ccccc1)C(=O)c1ccc(-c2ccc3c(c2)OCO3)cc1	BJ	-	<13.5 µM
CCOC(=O)/C=C/[C@H](C[C@@H]1CCNC1=O)NC(=O)[C@H](Cc1ccccc1)NC(=O)[C@@H](NC(=O)COc1ccccc1)C(C)C	H1-HELA	-	>100 µM
C[C@@H]1Cc2nn3c(c2CN1C(=O)c1ccc(Cl)c(C#N)c1)C(=O)N([C@H](C)c1cccc(OC(F)(F)F)c1)CC3	HepG2.117	luminescence	>50 µM
C=Cc1cn([C@@H]2O[C@H](CO)[C@@H](O)[C@@H]2O)c(=O)[nH]c1=O	HELF	-	650 µg/mL
O=C1N(CCCCCCOc2ccc(C(F)(F)F)cc2)CCN1c1ccncc1	RD	-	>25 µM
CCC(CCC[C@@H](CO)N(CCC(C)C)S(=O)(=O)c1ccc(N)cc1)NC(=O)[C@H](C(c1ccccc1)c1ccccc1)N(C)C(=O)OC	T lymphoid cells	microscopy	>10 µM
C=Cc1cccnc1CN(CCCCN)Cc1nc2nccc(N3CCN(C)CC3)c2[nH]1	C8166	MTT	>10 µM
Cc1ccccc1Cn1c(-c2ccc(-n3cncn3)cc2)nc2c(F)cc(F)cc21	Vero-C-1008	neutral red / absorbance	>50 µg/mL
C[C@@H]1Cc2nn3c(c2CN1C(=O)c1ccc(Br)c(C#N)c1)C(=O)N([C@@H](C)c1ccc(OC(F)(F)F)cc1)CC3	HepG2.117	luminescence	49.6 µM
Nc1nc(NC2CC2)c2ncn(C=C3CC3CO)c2n1	MEF	neutral red	220 µM
CN1CCN(c2ccnc3nc(CN(CCCCN)Cc4ccccc4C#N)[nH]c23)CC1	C8166	MTT	>10 µM
C[C@@H]1Cc2nn3c(c2CN1C(=O)c1ccc(Cl)c(C#N)c1)C(=O)N([C@H](C)c1cccc(C(F)(F)F)c1)CC3	HepG2.117	luminescence	>50 µM
COC(=O)N[C@@H](Cc1ccccc1Br)C(=O)N[C@@H](C)CCC[C@@H](CO)N(CC(C)C)S(=O)(=O)c1ccc(CO)cc1	T lymphoid cells	microscopy	>10 µM
CCOC(=O)/C=C/[C@H](CCC(N)=O)NC(=O)[C@H](Cc1ccc(C)cc1)NC(=O)[C@@H](NC(=O)C1SCCS1)C(C)(C)C	H1-HELA	-	>100 µM
CCOC(OCC)C(=O)NCCc1ccc(OC)c(OC)c1	HepG2	-	>20 µM
Cc1cn([C@@H]2O[C@H](CO)[C@@H](O)[C@@H]2O)c(=O)[nH]c1=O	HELF	-	100 µg/mL
Fc1cc(F)c2nc(-c3ccc(-n4cncn4)cc3)n(Cc3ccccc3)c2c1	Vero-C-1008	neutral red / absorbance	>50 µg/mL
Cn1nnc(C[C@H]2CC(=O)N2C(=O)NCc2ccc(C(F)(F)F)cc2)n1	COS-7	MTT	>195 µM
O=c1[nH]c(=O)n([C@@H]2O[C@H](COP(=O)(O)O)[C@@H](O)[C@@H]2O)cc1/C=C/Br	HELF	-	>800 µg/mL
Nc1nc2c(ncn2C=C2CC2CO)c(=O)[nH]1	MEF	neutral red	>429 µM
COC(=O)N[C@H](C(=O)NC(C)(C)CCC[C@@H](CO)N(C(C)C)S(=O)(=O)c1ccc(N)cc1)C(c1ccccc1)c1ccccc1	T lymphoid cells	microscopy	>10 µM
Cn1nnc(C[C@H]2CC(=O)N2C(=O)NCc2ccc([N+](=O)[O-])cc2)n1	COS-7	MTT	>133 µM
O=C(NCCc1ccccc1)C1=Cc2ccncc2CC1	MA-104	-	<136 µM
CC[C@@H](CCC[C@@H](CO)N(CC(C)C)S(=O)(=O)c1ccc(CO)cc1)NC(=O)[C@@H](NC(=O)OC)C(c1ccc(F)cc1)c1ccc(F)cc1	T lymphoid cells	microscopy	>10 µM
CCc1ccc(-n2cc(Cn3nc(-c4ccccc4)c4c3CCN(C(=O)Nc3ccccc3)C4)nn2)cc1	RAW 264.7	MTT	370 µM
COC(=O)[C@H](Cc1cccc2ccccc12)Nc1nc2ccc(NC(=O)OC(C)(C)C)c(C)c2c(=O)o1	H1-HELA	-	>100 µM
CN[C@H](C(=O)N[C@H](CCC[C@@H](CO)N(CC(C)C)S(=O)(=O)c1ccc(CO)cc1)C1CC1)C(c1ccccc1)c1ccccc1	T lymphoid cells	microscopy	>10 µM
NC(N)=NCC(=O)NCCN1CCC(NC(=O)C(=O)Nc2ccc(Cl)cc2)CC12CCCCC2	PM1	WST	33 µM
CCOC(=O)/C=C/[C@H](CCC(N)=O)NC(=O)[C@H](Cc1ccccc1)NC(=O)[C@H](CC(C)C)NC(=O)c1cc(C)on1	H1-HELA	-	>100 µM
Nc1cn(/C=C2/C[C@H]2CO)c(=O)[nH]c1=O	H-1	-	>50 µM
Nc1nc(=O)n([C@@H]2CC[C@H](CO)O2)cc1F	RAJI	-	25 µM
CN(Cc1nc2ccccc2o1)Cc1ncccc1CCC#N	C8166	MTT	>10 µM
CCn1c(-c2ccc(-n3cncn3)cc2)nc2c(F)cc(F)cc21	Vero-C-1008	neutral red / absorbance	>50 µg/mL
COc1ccccc1CNC(=O)C1=Cc2ccncc2CC1	MA-104	-	93 µM
NC(N)=NCCN(CCN=C(N)N)CCN1CCC(NC(=O)C(=O)Nc2ccc(Cl)cc2)CC12CCCCC2	PM1	WST	105 µM
Nc1ncnc2c1ncn2/C=C1/C[C@H]1CO	MEF	neutral red	>518 µM
Cn1c(-c2ccc(-n3cncn3)cc2)nc2c(F)cc(F)cc21	Vero-C-1008	neutral red / absorbance	>50 µg/mL
CN(Cc1ncc[nH]1)Cc1ncccc1CCC#N	C8166	MTT	>10 µM
O=C1C[C@H](Cc2cccs2)N1C(=O)NCc1ccc([N+](=O)[O-])cc1	COS-7	MTT	>79 µM
C=C(C)[C@@H]1CC[C@]2(C(=O)N[C@@H](CCSC)C(=O)OC)CC[C@@]3(C)C(CCC4[C@@]5(C)CC/C(=N\O)C(C)(C)C5CC[C@]43C)C12	MOLT-4/8	MTT	0.91 µM
C=CCn1c(-c2ccc(-n3cncn3)cc2)nc2c(F)cc(F)cc21	Vero-C-1008	neutral red / absorbance	>50 µg/mL
Cc1cccnc1CN(C)Cc1nc2ccccc2[nH]1	C8166	MTT	>10 µM
C=C1CCC(C)=C2Cc3cc(ccc3O)C(=O)O[C@H](C(C)(C)O)CCC(C)(O)[C@H](Br)CCC12	DU4475 cells	MTT	18 µM
COC(=O)N[C@H](C(=O)N[C@H](CCC[C@@H](CO)N(CC(C)C)S(=O)(=O)c1ccc(CO)cc1)C1CC1)C(c1ccc(F)cc1)c1ccc(F)cc1	T lymphoid cells	microscopy	>10 µM
O=c1[nH]c(=O)n([C@H]2C[C@H](O)[C@@H](CO)O2)cc1I	HELF	-	8 µg/mL
COC(=O)C(C)NP(=O)(OC[C@@H]1C/C1=C\n1cc(C)c(=O)[nH]c1=O)Oc1ccccc1	H-1	-	>100 µM
COC(=O)N[C@H](C(=O)N[C@H](CCC[C@@H](CO)N(CCC(C)C)S(=O)(=O)c1ccc(CO)cc1)C(C)(C)C)C(c1ccccc1)c1ccccc1	T lymphoid cells	microscopy	>10 µM
NC(N)=NCCN1CCC(NC(=O)C(=O)Nc2ccc(Cl)cc2)CC12CCCCC2	PM1	WST	50 µM
Cc1ccc(-n2cc(Cn3nc(-c4ccccc4)c4c3CCN(C(=O)Nc3ccccc3)C4)nn2)cc1	RAW 264.7	MTT	335 µM
COC(=O)C(C)NP(=O)(OC[C@@H]1C/C1=C/n1cc(N)c(=O)[nH]c1=O)Oc1ccccc1	H-1	-	74 µM